Earlier results on 1 compound are cited in US20050192221A1, “Methods and compositions related to plunc polypeptides” (priority 2003, published 2005).

The subject of this data set is Legionella spp. More on the design: unit not given beside the values. As to conditions: cited from earlier work.

On to `CC[C@H]1OC(=O)[C@H](C)[C@@H](O[C@H]2C[C@@](C)(OC)[C@@H](O)[C@H](C)O2)[C@H](C)[C@@H](O[C@@H]2O[C@H](C)C[C@H](N(C)C)[C@H]2O)[C@](C)(O)C[C@@H](C)C(=O)[C@H](C)[C@@H](O)[C@]1(C)O` [ERYTHROMYCIN, erythromycin], for which the MIC90 is on record as 0.25.
